Only a part is listed here, and it is no random draw. Records with an inconclusive call do not appear. Activity calls are given as the source filed them. Calls follow the shape of the full dose curve.
Test: qHTS for Inhibitors of the Functional Ribonucleoprotein Complex (vRNP) of Lassa (LASV) Arenavirus: LASV Confirmatory Screen - GLuc reporter signal
Details: LASV minigenome vRNP, Gaussia luciferase reporter

Which Potency does the source give for `Cc1cc([N+](=O)[O-])cc([N+](=O)[O-])c1O` here?
The Potency was active: 49.8 µM.

Reference: PubChem BioAssay AID1347087 (National Center for Advancing Translational Sciences (NCATS), 2019)
